This passage reports immobilization or death results from patent publication US5672682A, “Conotoxin peptide PVIIA” (dated 1997).

Each structure is given as a SMILES string.

This data set has as its system goldfish. The experiment in a line: Bioassay by injection into goldfish. The settings on record: even in large doses.

For the compound `CC[C@H](C)[C@@H]1NC(=O)[C@H](CCCNC(=N)N)NC(=O)[C@@H](N)CSSC[C@@H]2NC(=O)[C@@H]3CSSC[C@@H](C(=O)N[C@H](C(=O)O)C(C)C)NC(=O)[C@H](CCCCN)NC(=O)[C@H](CC(N)=O)NC(=O)[C@H](Cc4ccccc4)NC(=O)[C@H](CCCNC(=N)N)NC(=O)[C@H](CC(N)=O)NC(=O)[C@H](CSSC[C@H](NC(=O)[C@H](CCCCN)NC(=O)[C@H](CCC(N)=O)NC(=O)[C@H](CC(N)=O)NC(=O)[C@@H]4C[C@@H](O)CN4C1=O)C(=O)N[C@@H](Cc1ccccc1)C(=O)N[C@@H](CCC(N)=O)C(=O)N[C@@H](Cc1c[nH]cn1)C(=O)N[C@@H](CC(C)C)C(=O)N[C@@H](CC(=O)O)C(=O)N[C@@H](CC(=O)O)C(=O)N3)NC(=O)[C@H](CCCCN)NC(=O)[C@H](CCCNC(=N)N)NC(=O)[C@H](CO)NC2=O`, the immobilization or death entry was “did not cause either immobilization or death”.
